Measurements reported in PubChem BioAssay AID504761 (Drosophila RNAi Screening Center, 2011).

Assay: 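Insect host genes that dengue virus relies on to spread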 (primary screen)
Cells: D.Mel-2 cells from Drosophila
Knock-down reagent: long dsRNA against Drosophila genes
Treatment: infection with dengue virus type 2; dose and infection time not stated
Measurement: 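Cells stained for dengue envelope protein and imaged; percent of infected cells per well on duplicate plates, ranked by infection, with stained nuclei counted for cell number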
Direction: infection score: higher = more virus-infected cells; cell count: higher = more cells in the well
Hit rule: 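Very low infection ranking in both replicate wells (chance probability at most 0.065), then a retest showing infection dropped 1.5-fold or more at p below 0.05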
Meaning of the calls: active = confirmed: knock-down lowers infection; inactive = not picked or not confirmed
In all, the deposit lists about 22,000 reagents; this is a random part of those that have a named target and a result. Over the whole deposit, 116 (0.52%) are marked active. 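Calls depend on retest data that are not deposited; infection was ranked per plate without normalising between plates; the unit of the infection score is not given.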 Raw values are not corrected between plates. Reagents against one gene are numbered here. Reagent sequences are not shown. Not stated in the record: the amount of reagent, the time to read-out.

gene	reagent	infection score, replicate 1	infection score, replicate 2	cell count, replicate 1	cell count, replicate 2	activity call
Adsl	1	8.14	7.2	6228	6503	inactive
CG16781	1	1.67	3.75	6754	6689	inactive
CG16781	2	16.1	22.3	5108	3292	inactive
CG11790	1	2.97	2.9	6362	6962	inactive
CG14050	1	4.09	4.44	6013	6561	inactive
arx	1	6.27	26.2	6349	5313	inactive
CG6409	1	9.77	23.7	5691	4600	inactive
CG6409	2	2.68	2.83	6379	6753	inactive
CG6409	3	1.76	1.14	6465	6744	inactive
Sec31	1	9.83	7.77	5969	6341	inactive
Sec31	2	11.2	12	6574	6079	inactive
rasp	1	0.29	3.04	6639	6062	inactive
TfIIEbeta	1	4.05	2.4	6253	6214	inactive
Cdc45	1	3.64		5829	242	inactive
Cdc45	2	1	2.84	6380	4901	inactive

Sorted by “cell count, replicate 1” (low to high): 3 of the entries above
gene	reagent	infection score, replicate 1	infection score, replicate 2	cell count, replicate 1	cell count, replicate 2	activity call
CG6409	1	9.77	23.7	5691	4600	inactive
CG6409	2	2.68	2.83	6379	6753	inactive
CG6409	3	1.76	1.14	6465	6744	inactive

More results follow.
gene	reagent	infection score, replicate 1	infection score, replicate 2	cell count, replicate 1	cell count, replicate 2	activity call
CG11629	1	3.49	7.87	6881	6775	inactive
CG7377	1	0.98	10.2	6006	5730	inactive
Sems	1	8.06	17.3	6439	6323	inactive
Sems	2	12.5	1.59	5924	6163	inactive
kmr	1	1.14	1.63	6206	6392	inactive
kmr	2	0.57	1.99	6518	6321	inactive
kmr	3	6.93	7.94	6736	6638	inactive
kmr	4	2.75	2.21	6154	6244	inactive
kmr	5	16.5		3412	421	inactive
ATPsyngamma	1	2.75	5.7	1452	1210	inactive
ND-51	1	4.23	9.49	5669	5406	inactive
foi	1	0.79	1.88	5189	5891	inactive
foi	2	2.26	0.85	574	468	inactive
clu	1	5.3	7.05	5961	5744	inactive
clu	2	20.2	12.2	3353	5633	inactive
TFAM	1	7.08	9.3	6523	6567	inactive
TFAM	2	7.93	1.75	5677	6292	inactive
Setd3	1	1.09	0.98	6667	6870	inactive
Setd3	2	2	1.18	6797	6791	inactive
CG14013	1	4.52	7	5753	6812	inactive
ocn	1	2.07	4.09	6618	6447	inactive
CG5214	1	10.3	20.8	4332	4135	inactive
CG5214	2	3.18	1.52	6168	6451	inactive
CG5214	3	7.69	5.24	5682	5423	inactive
